Anti-infective test results gathered from many reports (values: NIAID ChemDB through PubChem).

Common to all: growth or infection tests; species: HIV-1; cell line: PBMC; measure: EC50

ECn is the concentration giving n% inhibition of infection, replication or growth.

CCC[C@@]1(CCc2ccccc2)CC(O)=C([C@H](CC)c2cccc(NS(=O)(=O)c3ccc(C(F)(F)F)cn3)c2)C(=O)O1 ; strain or isolate: 458 clinical isolates delavirdine-resistant ; method: p24 ; result: <0.04 µM
CC(=O)N1CCC(C(=O)N(CCCN2CCC(Cc3ccc(C(N)=O)cc3)CC2)c2ccc(C)c(Cl)c2)CC1 ; strain or isolate: HHA R5 clinical isolate ; method: p24 ; result: 0.00055 µM
CCO/N=C(\c1ccc(Br)cc1)C1CCN(C2(C)CCN(C(=O)c3c(C)cc[n+]([O-])c3C)CC2)CC1 ; strain or isolate: ASM 57 R5 CLADE B ; method: p24 ; result: 0.01 µM
O=C1N(Cc2ccc(CO)cc2)[C@H](Cc2ccccc2)[C@H](O)[C@@H](O)[C@@H](Cc2ccccc2)N1Cc1ccc(CO)cc1 ; strain or isolate: 2 clinical isolate ; method: p24 ; result: 0.04 µM
CCC[C@@H](c1ccc(C(F)(F)F)cc1)N1CCN(C2(C)CCN(C(=O)c3c(C)ncnc3C)CC2)C[C@@H]1C ; strain or isolate: JRFL Clinical isolates ; result: <0.00001 µM
Cc1cn([C@H]2C[C@H](N=[N+]=[N-])[C@@H](CO)O2)c(=O)[nH]c1=O ; strain or isolate: SLKA (non-syncytium-inducing) ; method: cytopathic effect / XTT ; result: 0.02 µM
Nc1ccn([C@H]2CC[C@@H](CO)O2)c(=O)n1 ; strain or isolate: Recombinant ; changes: RT-Q151M ; method: p24 ; result: 0.07 µM
CC(C)c1nc(CN(C)C(=O)N[C@H](C(=O)N[C@@H](Cc2ccccc2)C[C@H](O)[C@H](Cc2ccccc2)NC(=O)OCc2cncs2)C(C)C)cs1 ; strain or isolate: LAI Laboratory isolate ; method: p24 ; result: 0.04 µM
Cc1cccc(NC(=S)NCCC2=CCCCC2)n1 ; strain or isolate: IIIB ; result: 0.017 µM
Cc1cn([C@H]2C[C@H](N=[N+]=[N-])[C@@H](CO)O2)c(=O)[nH]c1=O ; strain or isolate: 689 ; method: ELISA ; result: 0.02 µM
CC(C)=CCN1Cc2cc(Cl)cc3[nH]c(=S)n(c23)C[C@@H]1C ; strain or isolate: BCF08 ; changes: RT-A98G Y181C ; result: >6.25 µM
CC(C)CN(C[C@@H](O)[C@H](Cc1ccccc1)NC(=O)O[C@H]1CCOC1)S(=O)(=O)c1ccc(N)cc1 ; strain or isolate: 92UG037 ; method: p24 / luminescence ; result: 0.051 µM
O=c1[nH]cnc2c1ncn2[C@H]1CC[C@@H](CO)O1 ; strain or isolate: 8618 CLADE B CLADE B ; method: p24 ; result: 2 µM
CC(C)(C)NC(=O)[C@@H]1C[C@@H]2CCCC[C@@H]2CN1C[C@@H](O)[C@H](Cc1ccccc1)NC(=O)[C@H](CC(N)=O)NC(=O)c1ccc2ccccc2n1 ; strain or isolate: BCF11 ; changes: PR-L10V K20C M36I L63T I64V A71V ; result: 0.0225 µM
S=C(NCCc1ccccn1)Nc1ccc(Br)cn1 ; strain or isolate: RT-MDR(RT-V106A) ; changes: RT-V106A ; result: 0.02 µM
Cc1cccc(C)c1OCC(=O)N[C@@H](Cc1ccccc1)[C@@H](O)C[C@H](Cc1ccccc1)NC(=O)[C@H](C(C)C)N1CCCNC1=O ; strain or isolate: Clinical isolate ; changes: L10I K14R L33I M36I M46I F53I K55R I62V L63P A71V G73S V82A L90M I93L ; method: p24 / luminescence ; setting: clinical isolate, multidrug-resistant ; result: >1 µM
CCC(=O)c1ccc(F)c([C@@H]2C[C@@H]2NC(=O)Nc2ccc(C#N)cn2)c1O ; strain or isolate: 92BR025 ; method: absorbance ; result: 0.0002 µM
c1cc(CN2CCCNCCNCCCNCC2)ccc1CN1CCCNCCNCCCNCC1 ; strain or isolate: JR-FL R5 ; method: antigen ; result: >25 µg/mL
CN[C@@H]1[C@H](O[C@@H]2OC[C@@H](O)[C@H](O)[C@H]2O)[C@@H](O)[C@H](O[C@H]2c3cc(C)c(C(=O)N[C@H](C)C(=O)O)c(O)c3-c3c(cc4c(c3O)C(=O)c3cc(OC)cc(O)c3C4=O)[C@@H]2O)O[C@@H]1C ; strain or isolate: UG270 X4 CLADE D ; method: p24 ; result: 3.1 µg/mL
Cc1cn([C@H]2C[C@H](N=[N+]=[N-])[C@@H](CO)O2)c(=O)[nH]c1=O ; strain or isolate: IIIB ; method: p24 ; result: 0.003 µM
c1cc(CN2CCCNCCNCCCNCC2)ccc1CN1CCCNCCNCCCNCC1 ; strain or isolate: CM1 CLADE C R5 ; method: p24 ; result: >0.5 µM
COc1ccc(S(=O)(=O)N(CC(C)C)C[C@@H](O)[C@H](Cc2ccccc2)NC(=O)O[C@H]2CO[C@H]3OCC[C@H]32)cc1 ; strain or isolate: Clinical isolate ; changes: PR-L10I V11I T12E I15V L19I R41K M46L L63 A71T V82A L90M ; method: p24 ; result: 0.0016 µM
S=C(NCCC1=CCCCC1)Nc1ccc(Br)cn1 ; strain or isolate: RT-MDR(RT-V106A) ; changes: RT-V106A ; result: 0.001 µM
CC(C)(C)NC(=O)[C@@H]1CN(Cc2cccnc2)CCN1C[C@@H](O)C[C@@H](Cc1ccccc1)C(=O)N[C@H]1c2ccccc2C[C@H]1O ; strain or isolate: 7295-1 NRTI resistant recombinant ; changes: RT-D67N T69N K70R M184V T215F K219Q ; method: p24 ; result: 0.0172 µM
CC(C)(C)NC(=O)[C@@H]1C[C@@H]2CCCC[C@@H]2CN1C[C@@H](O)[C@H](Cc1ccccc1)NC(=O)[C@H](CC(N)=O)NC(=O)c1ccc2ccccc2n1 ; strain or isolate: Clinical isolate ; changes: PR-L10I I15V K20R M36I M46L I54V K55R I62V L63P K70Q V82A L89M ; method: p24 ; result: 0.037 µM
Cc1ccnc2c1NC(=O)c1cccnc1N2C1CC1 ; strain or isolate: A17 ; changes: RT-K103N Y181C ; result: >100 µM
Cc1cn([C@H]2C[C@H](N=[N+]=[N-])[C@@H](CO)O2)c(=O)[nH]c1=O ; strain or isolate: C140 NRTI resistant ; changes: RT-M42L M184V T215Y ; method: p24 ; result: 0.1 µM
Cc1cn([C@H]2C[C@H](N=[N+]=[N-])[C@@H](CO)O2)c(=O)[nH]c1=O ; strain or isolate: Recombinant ; changes: RT-Q151M ; method: p24 ; result: 0.03 µM
S=C(NCCc1cccs1)Nc1ccc(Br)cn1 ; strain or isolate: P798-1 Clinical isolate NRTI-resistant ; changes: RT-M41L T215Y ; method: p24 ; result: 0.016 µM
COC(=O)[C@H](C)NP(=O)(OC[C@@H]1C=C[C@H](n2cc(C)c(=O)[nH]c2=O)O1)Oc1ccc(Br)cc1 ; strain or isolate: C467-4 NNRTI-resistant clinical isolate ; changes: RT-Y188L ; method: p24 ; result: 0.042 µM
Cc1cn([C@H]2C[C@H](N=[N+]=[N-])[C@@H](CO)O2)c(=O)[nH]c1=O ; strain or isolate: RUD (RT-A98G) ; changes: RT-A98G ; result: <0.01 µM
CC[C@@H](c1ccc(C(F)(F)F)cc1)N1CCN(C2(C)CCN(C(=O)c3c(C)ncnc3C)CC2)C[C@@H]1C ; strain or isolate: JRFL Clinical isolates ; result: <0.019 µM
Cc1cn([C@H]2C[C@H](N=[N+]=[N-])[C@@H](CO)O2)c(=O)[nH]c1=O ; strain or isolate: G691-2 ; method: p24 ; result: >10 µM
CC(C)CN(C[C@@H](O)[C@H](Cc1ccccc1)NC(=O)O[C@H]1CCOC1)S(=O)(=O)c1ccc(N)cc1 ; strain or isolate: Clinical isolate ; changes: PR-L10I K43T M46L I54L L63P A71T V82A L90M Q92K ; method: p24 ; result: 0.67 µM
COC(=O)[C@H](C)NP(=O)(OC[C@@H]1C=C[C@H](n2cc(C)c(=O)[nH]c2=O)O1)Oc1ccc(Br)cc1 ; strain or isolate: 4755-5 NRTI resistant recombinant ; changes: RT-M41L E44D D67N T69D Y118I M184V L210W T215Y ; method: p24 ; result: 0.006 µM
CC(C)Nc1cccnc1N1CCN(C(=O)c2cc3cc(NS(C)(=O)=O)ccc3[nH]2)CC1 ; strain or isolate: 6 clinical isolates AZT-resistant ; method: p24 ; result: <0.1 µM
Cc1cc(C#N)cc(C)c1Oc1nc(Nc2ccc(C#N)cc2)nc(N)c1Br ; strain or isolate: 92BR014 ; changes: ZA-resistant mutant ; method: absorbance ; result: 0.0009 µM
Cc1cn([C@H]2C[C@H](N=[N+]=[N-])[C@@H](CO)O2)c(=O)[nH]c1=O ; strain or isolate: WEJO ; method: cytopathic effect / XTT ; setting: clinical isolate ; result: 0.02 µM

5 of the rows above, restated:

smiles	strain or isolate	changes	method	setting	result
CC(C)(C)NC(=O)[C@@H]1C[C@@H]2CCCC[C@@H]2CN1C[C@@H](O)[C@H](Cc1ccccc1)NC(=O)[C@H](CC(N)=O)NC(=O)c1ccc2ccccc2n1	Clinical isolate	PR-L10I I15V K20R M36I M46L I54V K55R I62V L63P K70Q V82A L89M	p24	-	0.037 µM
CC(C)(C)NC(=O)[C@@H]1C[C@@H]2CCCC[C@@H]2CN1C[C@@H](O)[C@H](Cc1ccccc1)NC(=O)[C@H](CC(N)=O)NC(=O)c1ccc2ccccc2n1	BCF11	PR-L10V K20C M36I L63T I64V A71V	-	-	0.0225 µM
Cc1cn([C@H]2C[C@H](N=[N+]=[N-])[C@@H](CO)O2)c(=O)[nH]c1=O	G691-2	-	p24	-	>10 µM
Cc1cccc(NC(=S)NCCC2=CCCCC2)n1	IIIB	-	-	-	0.017 µM
CC(C)CN(C[C@@H](O)[C@H](Cc1ccccc1)NC(=O)O[C@H]1CCOC1)S(=O)(=O)c1ccc(N)cc1	92UG037	-	p24 / luminescence	-	0.051 µM

Blank or dashed fields: not listed here. Lines come from different laboratories, so protocols vary.